Anti-infective test results gathered from many reports (values: NIAID ChemDB through PubChem).

Common to all: growth or infection tests; species: Herpes simplex virus 2; method: cytopathic effect; measure: EC50

Conditions beyond the fields shown may differ between rows. An empty or dashed field is not shown. ECn: concentration that inhibits the pathogen or its effect by n%. a–b is a range or a potency band.

smiles	strain or isolate	cells	result
NC(=S)c1cncc([C@@H]2O[C@H](CO)[C@@H](O)[C@@H]2O)c1	G	E6SM	≥100 µg/mL
CC1(C)[C@@H](CCO)C[C@H]1n1nnc2c(N)nc(N)nc21	G	E6SM	150 µg/mL
OC[C@H]1O[C@@H](c2cc(C(O)C(I)I)c(F)cc2F)C[C@@H]1O	G	E6SM	>80 µg/mL
CC1(CO)CCC(Cn2nnc3c(=O)[nH]cnc32)C1(C)C	G	E6SM	>200 µg/mL
CCCSc1nc(N)nc2c1ncn2/C=C1/C[C@@H]1CO		HFF	66 µM
CC1=CC(CO)(CO)C[C@H]1n1ccc(N)nc1=O		CCL-81	>100 µg/mL
Cc1cn([C@H]2OC[C@@H](CO)C2F)c(=O)[nH]c1=O	G	E6SM	>80 µg/mL
O=c1[nH]c(=O)n([C@H]2C[C@H](O)[C@@H](CO)O2)cc1I	LYONS	PRK	0.2 µg/mL
CCCCCSc1nc(N)nc2c1ncn2/C=C1/C[C@@H]1CO		HFF	311 µM
NC(=S)c1cncc([C@H]2O[C@H](CO)[C@@H](O)[C@@H]2O)c1	G	E6SM	≥100 µg/mL
OC[C@H]1O[C@@H](c2cc(C(O)CI)c(F)cc2F)C[C@@H]1O	G	E6SM	>16 µg/mL
C#C[C@@H](O)C1=C[C@@H](n2cnc3c(N)ncnc32)[C@H](O)[C@@H]1O	G	E6SM	>400 µg/mL
C=CCOc1nc(N)nc2c1ncn2/C=C1/C[C@@H]1CO		HFF	>386 µM
C=C[C@@H](O)C1=C[C@@H](n2cnc3c(N)ncnc32)[C@H](O)[C@@H]1O	G	E6SM	>200 µg/mL
Cc1cn(C[C@H]2C[C@H]2CO)c(=O)[nH]c1=O			>100 µg/mL
O=c1[nH]c(=O)n([C@H]2C[C@H](O)[C@@H](CO)O2)cc1/C=C/Br	G	Primary rabbit kidney cells	2 µg/mL
CCCCCSc1nc(N)nc2c1ncn2/C=C1/C[C@@H]1CO		HFF	310.9 µM
CC1=C[C@H](n2ccc(N)nc2=O)C[C@@]1(CO)c1ccccc1		CCL-81	>100 µg/mL
Nc1nc(Cl)c2ncn([C@H]3CO[C@@H](CO)C3)c2n1	G	E6SM	300 µg/mL
CC1(CO)CCC(Cn2cnc3c(=O)[nH]cnc32)C1(C)C	G	E6SM	>200 µg/mL
CC1(C)[C@@H](CCO)C[C@H]1n1nnc2c(=O)[nH]cnc21	G	E6SM	70 µg/mL
CC(C1=NNC(=Nc2ccccc2)SC1)N1C(=O)c2ccccc2C1=O	SAV	VERO	30 µg/mL
Nc1nc(OCC2CC2)c2ncn(/C=C3/C[C@@H]3CO)c2n1		HFF	172 µM
N#Cc1cncc([C@@H]2O[C@H](CO)[C@H](O)[C@@H]2O)c1	G	E6SM	≥100 µg/mL
Nc1nc2c(ncn2COC(CO)CO)c(=O)[nH]1		VERO	0.55 µg/mL
O=c1[nH]c(=O)n([C@H]2C[C@H](O)[C@@H](COP(=O)(O)O)O2)cc1CCc1ccccc1	G	PRK	15 µg/mL
O=c1[nH]c(=O)n([C@H]2C[C@H](O)[C@@H](CO)O2)cc1/C=C/Br	G	E6SM	>80 µM
Nc1nc2c(ncn2COCCO)c(=O)[nH]1	R-325 (acyclovir-resistant)	HFF	>50 µg/mL
COc1cc(Cc2cnc(-n3c(C)nc4ccc(Br)cc4c3=O)nc2N)cc(OC)c1OC	G	E6SM	>80 µg/mL
Nc1nc2c(ncn2[C@H]2OC[C@@H](CO)C2O)c(=O)[nH]1	G	E6SM	9.6 µg/mL
OC[C@H]1O[C@@H](c2cncc(Br)c2)[C@@H](O)[C@@H]1O	G	E6SM	≥100 µg/mL
O=c1[nH]c(=O)n([C@H]2C[C@H](O)[C@@H](CO)O2)cc1-c1ccc(Cl)s1	196	HEL	200 µg/mL
Nc1nc(Cl)c2ccn([C@H]3CO[C@@H](CO)C3)c2n1	G	E6SM	300 µg/mL
O=c1[nH]c(=O)n([C@H]2C[C@H](O)[C@@H](CO)O2)cc1/C=C/Br	196	PRK	7 µg/mL
O=c1[nH]c(=O)n([C@@H]2OC3COP(=O)(O)OC3[C@H]2O)cc1I	LYONS	PRK	>400 µg/mL
N#Cc1cncc([C@H]2O[C@H](CO)[C@@H](O)[C@@H]2O)c1	G	E6SM	≥100 µg/mL
Nc1nc(NCC2CC2)c2ncn(/C=C3/C[C@@H]3CO)c2n1		HFF	>249 µM
Nc1ncnc2c1ncn2[C@H]1[C@H](O)[C@H](F)[C@@H](CO)[C@@H]1O	G	HEP-2	90 µM
CC1(CO)CCC(Cc2nc3ncnc(N)c3[nH]2)C1(C)C	G	E6SM	200 µg/mL
CC1(C)[C@@H](CCO)C[C@H]1n1nnc2c(N)ncnc21	G	E6SM	100 µg/mL
N#Cc1cncc([C@H]2O[C@H](CO)[C@H](O)[C@@H]2O)c1	G	E6SM	≥100 µg/mL
CCc1cn([C@H]2C[C@H](O)[C@@H](CO)O2)c(=O)[nH]c1=O	Clinical isolates	BHK-21	0.08–0.7 µg/mL
CC1(C)C(OC2O[C@H](C(=O)O)[C@@H](O)[C@H](NC3[C@@H](O)[C@H](O)[C@@H](CO)O[C@@H]3O)[C@H]2OC2O[C@H](O)[C@@H](O)[C@H](O)[C@H]2C(=O)O)CC[C@@]2(C)C1CC[C@]1(C)C2C(=O)C=C2C3C[C@@](C)(C(=O)O)CC[C@]3(C)CC[C@]21C		VERO	>250 µg/mL
CCc1nc(-n2c(-c3ccccc3)nc3ccc(Br)cc3c2=O)nc(N)c1-c1ccc(Cl)cc1	G	E6SM	>16 µg/mL
C=CCNc1nc(N)nc2c1ncn2/C=C1/C[C@@H]1CO		HFF	>367 µM
O=c1[nH]c(=O)n(C2CC(CO)[C@@H](O)C2)cc1/C=C/Br	196	PRK	70 µg/mL
O=c1c2ncn(COC(CO)CO)c2nc2[nH]c(-c3ccccc3)cn12	G	E6SM	0.3 µg/mL
Nc1nc2c(ncn2/C=C2\CC2(CO)CO)c(=O)[nH]1		HFF	>380 µM
Nc1ccn([C@@H]2OC[C@H](CO)[C@H]2O)c(=O)n1	G	E6SM	>400 µg/mL
COC(=O)C(C)(C)NP(=O)(OC[C@H]1O[C@@H](n2cc(/C=C/Br)c(=O)[nH]c2=O)C[C@@H]1O)Oc1ccccc1	G	E6SM	>240 µM
OC[C@H]1O[C@@H](c2cncc(Br)c2)[C@@H](O)[C@H]1O	G	E6SM	≥100 µg/mL
Nc1nc2c(ncn2C[C@H]2C[C@@H]2CO)c(=O)[nH]1			>100 µg/mL
CC(=O)Oc1ccc([C@@H]2CC(=O)c3c(cc(OC(C)=O)c(-c4c(OC(C)=O)cc5c(c4OC(C)=O)C(=O)C[C@@H](c4ccc(OC(C)=O)cc4)O5)c3OC(C)=O)O2)cc1		HFF	>4 µg/mL
O=c1[nH]c(=O)n([C@@H]2C[C@H](CO)[C@@H](O)C2)cc1/C=C/Br	LYONS	PRK	20 µg/mL
CCCCCOc1nc(N)nc2c1ncn2/C=C1/C[C@@H]1CO		HFF	>329.6 µM
Nc1nc2c(ncn2C/C=C/CO)c(=O)[nH]1			>100 µg/mL
CCc1nc(-n2c(C)nc3ccc(Br)cc3c2=O)nc(N)c1-c1ccc(Cl)cc1	G	E6SM	>16 µg/mL

A second listing of 8 rows from above:

smiles	strain or isolate	cells	result
NC(=S)c1cncc([C@@H]2O[C@H](CO)[C@@H](O)[C@@H]2O)c1	G	E6SM	≥100 µg/mL
C#C[C@@H](O)C1=C[C@@H](n2cnc3c(N)ncnc32)[C@H](O)[C@@H]1O	G	E6SM	>400 µg/mL
O=c1[nH]c(=O)n([C@H]2C[C@H](O)[C@@H](CO)O2)cc1/C=C/Br	G	Primary rabbit kidney cells	2 µg/mL
N#Cc1cncc([C@@H]2O[C@H](CO)[C@H](O)[C@@H]2O)c1	G	E6SM	≥100 µg/mL
OC[C@H]1O[C@@H](c2cc(C(O)CI)c(F)cc2F)C[C@@H]1O	G	E6SM	>16 µg/mL
O=c1c2ncn(COC(CO)CO)c2nc2[nH]c(-c3ccccc3)cn12	G	E6SM	0.3 µg/mL
CCCSc1nc(N)nc2c1ncn2/C=C1/C[C@@H]1CO		HFF	66 µM
OC[C@H]1O[C@@H](c2cc(C(O)C(I)I)c(F)cc2F)C[C@@H]1O	G	E6SM	>80 µg/mL